Measurements: US20080207537A1, “Topical Ungual Formulations” (priority 2005, published 2008)

Test: Nail swelling study (weight increase of nail clippings immersed in penetration enhancer solution)
Design: species or system human
Conditions: for nail weight after 20 h: ANOVA (FIG. 6); for weight of the nail clippings after 20 h compared to the control: ANOVA, n=10 (FIG. 1); for physical change in appearance of treated nails: compared to controls

| Structure (SMILES) | nail weight after 20 h (1% DTT compared to 5% DTT) | nail weight after 20 h (DTT concentration increases between 5-10%) | weight of the nail clippings after 20 h compared to the control (single penetration enhancer) | physical change in appearance of treated nails (single penetration enhancer) | increase in nail weight (single penetration enhancer, 5% TA, 20 h (maximum of the single enhancers, FIG. 1)) [%] | nail weight increase after 20 h (urea-H2O2, increasing concentrations between 20% and 35% H2O2, ANOVA (FIG. 5)) |
| --- | --- | --- | --- | --- | --- | --- |
| O[C@@H](CS)[C@@H](O)CS (racemic) [DTT, 1,4-dithio-DL-threitol] | significant weight increase | no significant effect | significantly increased |  |  |  |
| O=C(O)CO [Glycolic acid] |  |  | significantly increased | softer than the controls and also lighter in colour |  |  |
| OO [Hydrogen peroxide] |  |  | significantly increased | softer than the controls and also lighter in colour |  |  |
| O=C(O)CS [Thioglycolic acid] |  |  | significantly increased | softer than the controls and also lighter in colour | 71 |  |
| NC(N)=O.OO [Urea hydrogen Peroxide, Urea hydrogen peroxide addition compound] |  |  | significantly increased |  |  | no significant difference |

Some compounds share one wording; it may come from a single statement.
